Laboratory results published in paper PMC4499131.
Construct, isoform or probe ends are uncertain for at least one entry.

Chains of the proteins cited; added tags and fusions are not shown. Lines headed by an entry give the natural chain unless they say otherwise; changes in a name come on top.
UniProt P03132: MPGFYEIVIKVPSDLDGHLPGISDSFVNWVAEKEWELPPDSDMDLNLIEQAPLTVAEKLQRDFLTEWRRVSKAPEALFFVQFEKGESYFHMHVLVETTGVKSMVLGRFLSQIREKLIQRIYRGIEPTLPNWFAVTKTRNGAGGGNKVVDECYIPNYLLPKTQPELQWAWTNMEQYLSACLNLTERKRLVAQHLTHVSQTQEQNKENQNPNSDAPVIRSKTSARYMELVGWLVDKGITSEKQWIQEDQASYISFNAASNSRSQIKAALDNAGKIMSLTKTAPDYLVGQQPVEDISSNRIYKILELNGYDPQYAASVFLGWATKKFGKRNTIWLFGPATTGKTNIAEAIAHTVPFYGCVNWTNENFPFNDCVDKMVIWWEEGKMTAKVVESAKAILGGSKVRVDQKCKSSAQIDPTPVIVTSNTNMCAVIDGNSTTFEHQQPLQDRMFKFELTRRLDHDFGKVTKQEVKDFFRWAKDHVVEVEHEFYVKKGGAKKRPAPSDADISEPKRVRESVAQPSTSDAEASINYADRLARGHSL

Target: MBP-Rep68 (Adeno-associated virus 2) (UniProt P03132)
Assay: SPR
Conditions: 0.83 mM ATP, 10 mM Mg2+; recombinant protein; protein details: N-terminal MBP; label: 3'-biotin on strand 1

Sequence: GATCAGTGATGGAGTTGGCCACTCCCTCTCTGCGCGCTCGCTCGCTCACTGAGGCC / CTAGGGCCTCAGTGAGCGAGCGAGCGCGCAGAGAGGGAGTGGCCAACTCCATCACT [AAV S1 dsDNA (deltaITR AAVS1 Rep binding site)]
- binding result: binds
